# Data taken from patent US20220291215A1, “METHODS OF IDENTIFYING T CELL RECEPTORS” (published 2022).
# Experiments:
# [1] = target: memory CD4+ T cells from DP4+ donors, unstimulated (a small subset; their TCRs); experiment: flow cytometry ex vivo; 74119 evts in the dimer- CD4+ gate
# [2] = target: memory CD4+ T cells from DP4+ donors, unstimulated (a small subset; their TCRs); experiment: flow cytometry ex vivo; 81559 evts in the dimer- CD4+ gate
# [3] = target: memory CD4+ T cells from DP4+ donors, unstimulated (a small subset; their TCRs); experiment: flow cytometry ex vivo; 121598 evts in the dimer- CD4+ gate
# [4] = target: memory CD4+ T cells from DP4+ donors, unstimulated (a small subset; their TCRs); experiment: flow cytometry ex vivo; 53743 evts in the dimer- CD4+ gate
# [5] = target: memory CD4+ T cells from DP4+ donors, unstimulated (a small subset; their TCRs); experiment: flow cytometry ex vivo; 156667 evts in the dimer- CD4+ gate
substance,measurement,setting,value
Flu-HA527-546 DP4^L112W/V141M dimer (peptide-MHC),events in the dimer+ CD4+ gate,[1],0 evts
same,events in the dimer+ CD4+ gate,[2],3 evts
same,events in the dimer+ CD4+ gate,[3],0 evts
same,events in the dimer+ CD4+ gate,[4],0 evts
same,events in the dimer+ CD4+ gate,[5],1 evts
